# Laboratory results from publication PMC13291817, “Engineering an Exo70 integrated domain of a barley NLR for improved blast resistance” (2026).
# What was measured:
# [1] = molecular target: RGH2-Exo70 domain (residues 1033-1637), purified from E. coli (barley (Hordeum vulgare)); assay: ITC
# [2] = molecular target: RGH2^+-Exo70 domain (residues 1033-1637), purified from E. coli (barley (Hordeum vulgare)); assay: ITC
substance,measurement,setting,value
"AVR-Pii^Wb, purified from E. coli (natural protein)",Kd,[1],6.7 µM
same,Kd,[2],1.06 µM
